Results of unrelated studies side by side (data: NIAID ChemDB).

Common to all: toxicity to cultured cells; cells: H9; read-out: CC50

An empty or dashed field is not shown. CCn: concentration that lowers growth or viability of the cells by n%. Lines come from different laboratories, so protocols vary.

compound	read by	result
Nc1nc2c(ncn2[C@@H]2C[C@H](COP(=O)(O)O)[C@@H](O)[C@H]2O)c(=O)o1		>500 µg/mL
COc1cc2cc[n+](C)c(Cc3ccc4c(c3)OCO4)c2cc1OC		22.4 µg/mL
C[C@@H]1CC[C@]2(C(=O)O)CC[C@]3(C)C(=CC[C@@H]4[C@@]5(C)C[C@@H](O)[C@H](O)C(C)(C)[C@@H]5CC[C@]43C)[C@@H]2[C@]1(C)O		15 µg/mL
O=C1OC(C2OC(=O)c3cc(O)c(O)c(O)c3-c3c(O)c(O)c4oc(=O)c5c(c(O)c(O)c6oc(=O)c3c4c65)-c3c(cc(O)c(O)c3O)C(=O)OCC2O)C2OC(=O)c3c(c(O)c(O)c(O)c3C2O)-c2c1cc(O)c(O)c2O		<20 µg/mL
Nc1cccc2c(=O)cc(-c3ccccc3)sc12		15 µg/mL
CC(C)(C)OC(=O)N[C@@H](Cc1ccccc1)[C@@H](O)C[C@@H](Cc1ccc(OCc2nn[nH]n2)cc1)C(=O)N[C@H]1c2ccccc2C[C@H]1O		>200 µM
Cc1cc(=S)oc2c3c(ccc12)OC(C)(C)[C@H](OC(=O)C12CCC(C)(C(=O)O1)C2(C)C)[C@@H]3OC(=O)C12CCC(C)(C(=O)O1)C2(C)C		>153 µM
Nc1nc2c(ncn2[C@H]2C[C@H](O)[C@@H](CO)O2)c(=O)o1		>500 µg/mL
Cc1cn([C@H]2C[C@H](N=[N+]=[N-])[C@@H](CO)O2)c(=O)[nH]c1=O		>1000 µM
C/C=C(/C)C(=O)O[C@@H]1c2c(ccc3ccc(=O)oc23)OC(C)(C)[C@@H]1OC(C)=O		20.7 µM
CCC(c1cccc(NS(=O)(=O)c2ccc(C#N)cn2)c1)c1c(O)c2c(oc1=O)CCCC2		>30 µM
COc1c2ccoc2cc2oc(=O)ccc12		208.3 µM
Cc1ccc(-c2ccc3c(c2)C=C(C(=O)Nc2ccc(C[N+](C)(C)C4CCOCC4)cc2)CCC3)cc1		>10 µM
O=C(O)C(=O)/C=C(\O)c1cc(/C(O)=C/C(=O)C(=O)O)c2ccccc2n1	MTT	>25 µM
O=C(O[C@@H]1Cc2c(O)cc(O)cc2O[C@@H]1c1ccc(O)cc1)c1cc(O)c(O)c(O)c1		50 µg/mL
CC1(C)CC[C@]2(C(=O)O)CC[C@]3(C)C(=CC[C@@H]4[C@@]5(C)CC[C@H](O)C(C)(C)[C@@H]5CC[C@]43C)[C@@H]2C1		34.3 µg/mL
CC1(C)Oc2ccc3c(-c4ccccc4)cc(=S)oc3c2[C@@H](OC(=O)C23CCC(C)(C(=O)O2)C3(C)C)[C@H]1OC(=O)C12CCC(C)(C(=O)O1)C2(C)C		>140 µM
O=c1c(O[C@@H]2O[C@H](CO)[C@@H](O)[C@H](O)[C@H]2O)c(-c2ccc(O)cc2)oc2cc(O)cc(O)c12		<100 µg/mL
CC1(C)OC1COc1c2ccoc2cc2oc(=O)ccc12		23.4 µg/mL
O=c1[nH]cnc2c1ncn2[C@H]1CC[C@@H](CO)O1		1001 µM
CC(C)CC(SC1CCCC1)c1c(O)cc(-c2ccccc2)oc1=O		28 µM
O=c1cc(-c2ccc(O)cc2)oc2cc(O)cc(O)c12		35 µg/mL
CCC(c1cccc(NS(=O)(=O)c2ccc(C#N)cn2)c1)c1c(O)c2c(oc1=O)CCC2		>30 µM
Nc1nc(N)c2ncn(CCOCP(=O)(O)O)c2n1		10.5 µM
COc1cc2cc(Oc3ccc4ccc(=O)oc4c3)c(=O)oc2cc1O		22.7 µM
O=c1cc(-c2ccc(O)cc2)oc2cc(O)cc(O)c12		35 µg/mL
Nc1cccc2sc(-c3ccccc3)cc(=O)c12		50 µg/mL
COc1c(OCc2ccccc2)c(OCc2ccccc2)cc(C=O)c1-c1c(C=O)cc(OCc2ccccc2)c(OCc2ccccc2)c1OC		4 µM
O=c1ccc2cc(O)c(O)cc2o1		28.11 µg/mL
C/C=C(/C)C(=O)OC(C)(C)[C@@H]1Cc2c(ccc3ccc(=O)oc23)O1		13.1 µM
CC(C)C(NC(=O)OCc1ccncc1)C(=O)N[C@@H](Cc1ccccc1)C(O)[C@H](Cc1ccccc1)NC(=O)C(NC(=O)OCc1ccncc1)C(C)C	trypan blue	>100 µM
COC(C)(C)C(O)COc1c2ccoc2cc2oc(=O)ccc12		>100 µg/mL
CC(C)(C)OC(=O)N[C@@H](Cc1ccccc1)[C@@H](O)C[C@@H](Cc1ccc(OCC(=O)O)cc1)C(=O)N[C@H]1c2ccccc2C[C@H]1O		>200 µM
CC(C)(O[C@@H]1O[C@H](CO)[C@@H](O)[C@H](O)[C@H]1O)[C@H]1Cc2cc3ccc(=O)oc3cc2O1		>122.5 µM
CC(=O)Oc1ccc2c(=O)cc(-c3ccccc3)sc2c1		45 µg/mL
C[C@@H]1CC[C@]2(C(=O)O)CC[C@]3(C)C(=CC[C@@H]4[C@@]5(C)C[C@@H](O)[C@@H](O)C(C)(C)[C@@H]5CC[C@]43C)[C@@H]2[C@]1(C)O		37.5 µg/mL
Cc1cn([C@H]2C[C@H](N=[N+]=[N-])[C@@H](CO)O2)c(=O)[nH]c1=O		500 µg/mL
CC(C)[C@H](NC(=O)OCc1ccccc1)C(=O)N[C@@H](Cc1ccccc1)[C@@H](O)[C@H](O)[C@H](Cc1ccccc1)NC(=O)[C@@H](NC(=O)OCc1ccccc1)C(C)C	trypan blue	11 µM
O=C(O[C@@H]1Cc2c(O)cc3c(c2O[C@@H]1c1cc(O)c(O)c(O)c1)[C@@]1(O)C(=O)O[C@H]([C@@H](O)CO)C1(O)O3)c1cc(O)c(O)c(O)c1		40 µg/mL
CC(C)C(NC(=O)OCc1cccnc1)C(=O)N[C@@H](Cc1ccccc1)C(O)[C@H](Cc1ccccc1)NC(=O)C(NC(=O)OCc1cccnc1)C(C)C	trypan blue	>100 µM
CC(=O)O[C@H]1CCC2C3CC[C@@]45O[C@@H]4C(=O)C(S(C)(=O)=O)C[C@]5(C)C3CC[C@@]21C		1.29 µM
O=c1cc(-c2ccccc2)sc2cc(O)c(O)cc12		1.8 µg/mL
CCC(c1cccc(NS(=O)(=O)c2ccc(C#N)cn2)c1)c1c(O)c2c(oc1=O)CCCCCC2		>30 µM
O=C(O)P(=O)(O)O		>50 µg/mL
CC(C)(Cl)C(O)COc1c2ccoc2cc2oc(=O)ccc12		26.3 µg/mL
CC(C)C1NCCc2cc(O)c(O)cc21		22.8 µg/mL
COc1c(OCc2ccccc2)c(OCc2ccccc2)cc(CO)c1-c1c(CO)cc(OCc2ccccc2)c(OCc2ccccc2)c1OC		>140 µM
Cc1cn([C@H]2C[C@H](F)[C@@H](CO)O2)c(=O)[nH]c1=O		>0.013 µM
CC(=O)Oc1cc2sc(-c3ccccc3)cc(=O)c2cc1OC(C)=O		3 µg/mL
OCc1cc(OCc2ccccc2)c(OCc2ccccc2)c(OCc2ccccc2)c1-c1c(CO)cc(OCc2ccccc2)c(OCc2ccccc2)c1OCc1ccccc1		>120 µM
CCc1nccc2cc(O)c(O)cc12		2.08 µg/mL
C[C@@H]1CC[C@]2(C(=O)O)CC[C@]3(C)C(=CC[C@@H]4[C@@]5(C)CC[C@H](O)C(C)(C)[C@@H]5CC[C@]43C)[C@@H]2[C@]1(C)O		23.3 µg/mL
CC(C)(C)OC(=O)N[C@@H](Cc1ccccc1)[C@@H](O)C[C@@H](Cc1ccc(OCP(=O)(O)O)cc1)C(=O)N[C@H]1c2ccccc2C[C@H]1O		>200 µM
Cc1cn([C@H]2C[C@H](N=[N+]=[N-])[C@@H](CO)O2)c(=O)[nH]c1=O		>50 µg/mL
CC(C)[C@H](NC(=O)OCc1ccccn1)C(=O)NC(Cc1ccccc1)C(O)C(F)(F)C(Cc1ccccc1)NC(=O)OC(C)(C)C	trypan blue	35 µM
Cc1c2cc(O)c(O)cc2cc[n+]1C		2.15 µg/mL
C[C@@H]1CC[C@]2(C(=O)O)CC[C@]3(C)C(=CCC4[C@@]5(C)C[C@@H](O)[C@H](O)C(C)(C)C5CC[C@]43C)C2[C@H]1C		8 µg/mL
O=C(/C=C/c1ccc(O)cc1)O[C@@H]1Cc2c(O)cc(O)cc2O[C@@H]1c1cc(O)c(O)c(O)c1		35 µg/mL
C[C@@H]1CC[C@]2(C(=O)O)CC[C@]3(C)C(=CCC4[C@@]5(C)CC(=O)[C@H](O)C(C)(C)C5CC[C@]43C)C2[C@]1(C)O		40 µg/mL
Nc1cccc2sc(-c3ccccc3)cc(=O)c12		50 µg/mL
Nc1nc2c(ncn2[C@H]2C=C[C@@H](CO)O2)c(=O)o1		>500 µg/mL
CC(=O)O[C@H]1CCC2C3CC[C@@]45O[C@@H]4C(=O)C(C(N)=O)C[C@]5(C)C3CC[C@@]21C		3.84 µM
CC1(C)CC[C@]2(C(=O)O)CC[C@]3(C)C(=CC[C@@H]4[C@@]5(C)CC[C@H](OC(=O)CC(C)(C)C(=O)O)C(C)(C)[C@@H]5CC[C@]43C)[C@@H]2C1		11.2 µg/mL
CC1(C)O[C@@H]1COc1c2occc2cc2ccc(=O)oc12		20.1 µg/mL
COc1cccc2sc(-c3ccccc3)cc(=O)c12		7 µg/mL
CC(CC(=O)O)CC(=O)O[C@H]1CC[C@@]2(C)C(CC[C@]3(C)C2CC=C2C4CC(C)(C)CC[C@]4(C(=O)O)CC[C@]23C)C1(C)C		27.5 µg/mL
O=c1cc(-c2ccccc2)sc2ccc(O)cc12		40 µg/mL
CCCCCCCCCCCCCCCCNc1ccn([C@H]2C[C@H](OP(=O)(O)OC[C@H]3O[C@@H](n4cc(C)c(=O)[nH]c4=O)C[C@@H]3N=[N+]=[N-])[C@@H](CO)O2)c(=O)n1		120 µM
O=c1c(O[C@@H]2O[C@H](CO)[C@@H](O)[C@H](O)[C@H]2O)c(-c2ccc(O)cc2)oc2cc(O)cc(O)c12		>200 µg/mL
CC(C)[C@H](NC(=O)N(C)Cc1ccccn1)C(=O)N[C@@H](Cc1ccccc1)[C@@H](O)[C@H](O)[C@H](Cc1ccccc1)NC(=O)[C@@H](NC(=O)N(C)Cc1ccccn1)C(C)C		>100 µM
O=C(O[C@@H]1Cc2c(O)cc(O)c([C@@H]3c4c(O)cc(O)cc4O[C@H](c4cc(O)c(O)c(O)c4)[C@H]3O)c2O[C@@H]1c1cc(O)c(O)c(O)c1)c1cc(O)c(O)c(O)c1		9 µg/mL
Cc1cn([C@H]2C[C@H](N=[N+]=[N-])[C@@H](CO)O2)c(=O)[nH]c1=O		>0.048 µM
COc1ccc2ccc(=O)oc2c1CC=C(C)C		11.7 µg/mL
CCCc1cc(=S)oc2c3c(ccc12)OC(C)(C)[C@H](OC(=O)C12CCC(C)(C(=O)O1)C2(C)C)[C@@H]3OC(=O)C12CCC(C)(C(=O)O1)C2(C)C		>148 µM
CC(C)(C)OC(=O)N[C@@H](Cc1ccccc1)[C@@H](O)C[C@@H](Cc1ccc(OCc2nnnn2Cc2ccccc2)cc1)C(=O)N[C@H]1c2ccccc2C[C@H]1O		>200 µM
CCC(C1=C(O)C2CCCCC2OC1=O)c1cccc(NS(=O)(=O)c2ccc(C#N)cc2)c1		>30 µM

The last 9 rows once more:

compound,read by,result
CCCCCCCCCCCCCCCCNc1ccn([C@H]2C[C@H](OP(=O)(O)OC[C@H]3O[C@@H](n4cc(C)c(=O)[nH]c4=O)C[C@@H]3N=[N+]=[N-])[C@@H](CO)O2)c(=O)n1,,120 µM
O=c1c(O[C@@H]2O[C@H](CO)[C@@H](O)[C@H](O)[C@H]2O)c(-c2ccc(O)cc2)oc2cc(O)cc(O)c12,,>200 µg/mL
CC(C)[C@H](NC(=O)N(C)Cc1ccccn1)C(=O)N[C@@H](Cc1ccccc1)[C@@H](O)[C@H](O)[C@H](Cc1ccccc1)NC(=O)[C@@H](NC(=O)N(C)Cc1ccccn1)C(C)C,,>100 µM
O=C(O[C@@H]1Cc2c(O)cc(O)c([C@@H]3c4c(O)cc(O)cc4O[C@H](c4cc(O)c(O)c(O)c4)[C@H]3O)c2O[C@@H]1c1cc(O)c(O)c(O)c1)c1cc(O)c(O)c(O)c1,,9 µg/mL
Cc1cn([C@H]2C[C@H](N=[N+]=[N-])[C@@H](CO)O2)c(=O)[nH]c1=O,,>0.048 µM
COc1ccc2ccc(=O)oc2c1CC=C(C)C,,11.7 µg/mL
CCCc1cc(=S)oc2c3c(ccc12)OC(C)(C)[C@H](OC(=O)C12CCC(C)(C(=O)O1)C2(C)C)[C@@H]3OC(=O)C12CCC(C)(C(=O)O1)C2(C)C,,>148 µM
CC(C)(C)OC(=O)N[C@@H](Cc1ccccc1)[C@@H](O)C[C@@H](Cc1ccc(OCc2nnnn2Cc2ccccc2)cc1)C(=O)N[C@H]1c2ccccc2C[C@H]1O,,>200 µM
CCC(C1=C(O)C2CCCCC2OC1=O)c1cccc(NS(=O)(=O)c2ccc(C#N)cc2)c1,,>30 µM